Anti-infective test results gathered from many reports (values: NIAID ChemDB through PubChem).

Common to all: toxicity to cultured cells; cells: CV-1; endpoint: CC50

An empty or dashed field is not shown.

Nc1nc(=O)c2nc(-c3ccccc3)n([C@@H]3O[C@H](CO)[C@@H](O)[C@H]3O)c2c(=O)[nH]1 ; value: >100 µM
CCCc1cc(=O)oc2cc(OC(=O)C(C)(C)C)c3c(c12)OC(C)(C)C=C3 ; value: 3 µg/mL
COc1c2c(cc3oc(=O)c(-c4ccc(O)cc4O)cc13)OC(C)(CO)CC2 ; value: 23 µg/mL
CCCc1cc(=O)oc2c3c(c4c(c12)OC(C)(C)[C@H](O)[C@@H]4O)O[C@H](C)[C@@H](C)[C@@H]3O ; value: >100 µg/mL
CC(C)=CCc1cc(-c2coc3cc(O)cc(O)c3c2=O)cc(O)c1O ; value: 15 µg/mL
Nc1ncnc2c1ncn2[C@@H]1C[C@H](N)[C@@H](O)[C@H]1O ; value: >100 µg/mL
CCCc1cc(=O)oc2cc(OC(=O)CC)cc(O)c12 ; value: 90 µg/mL
[N-]=[N+]=N[C@H]1C[C@@H](n2cnc3c(N)ncnc32)[C@H](O)[C@@H]1O ; value: >100 µg/mL
CCCc1cc(=O)oc2cc(OC(=O)C(C)(C)C)cc(OC(=O)C(C)(C)C)c12 ; value: 12 µg/mL
O=C(OC1OC2COC(=O)c3cc(Oc4c(C(=O)OC5C(O)OC6COC(=O)c7cc(O)c(O)c(O)c7-c7c(cc(O)c(O)c7O)C(=O)OC6C5OC(=O)c5cc(O)c(O)c(O)c5)cc(O)c(O)c4O)c(O)c(O)c3-c3c(cc(O)c(O)c3O)C(=O)OC2C(OC(=O)c2cc(O)c(O)c(O)c2)C1O)c1cc(O)c(O)c(O)c1 ; value: >30 µg/mL
Nc1ncnc2c1ncn2[C@@H]1C=C[C@@H](O)[C@H]1O ; value: 100 µg/mL
CNc1nc(=O)c2ncn([C@@H]3O[C@H](CO)[C@@H](O)[C@H]3O)c2c(=O)[nH]1 ; value: >100 µM
O=C(OC1OC2COC(=O)c3cc(Oc4c(C(=O)OC5OC6COC(=O)c7cc(O)c(O)c(O)c7-c7c(cc(O)c(O)c7O)C(=O)OC6C(OC(=O)c6cc(O)c(O)c(O)c6)C5OC(=O)c5cc(O)c(O)c(O)c5)cc(O)c(O)c4O)c(O)c(O)c3-c3c(cc(O)c(O)c3O)C(=O)OC2C(OC(=O)c2cc(O)c(O)c(O)c2)C1OC(=O)c1cc(O)c(O)c(O)c1)c1cc(O)c(O)c(O)c1 ; value: >30 µg/mL
C[C@@]1(O)[C@H](O)[C@@H](COP(=O)(O)OP(=O)(O)OP(=O)(O)O)O[C@H]1n1ccc2c(N)ncnc21 ; value: >320 µM
Nc1ncnc2c1ncn2[C@H]1C[C@H](O)[C@H](O)[C@@H]1O ; value: >100 µg/mL
CCCc1cc(=O)oc2cc(O)c(C(=O)CC)c(O)c12 ; method: neutral red ; value: 6 µg/mL
O=CC(OC(=O)c1cc(O)c(O)c(O)c1Oc1cc2c(c(O)c1O)-c1c(cc(O)c(O)c1O)C(=O)OC(C(OC(=O)c1cc(O)c(O)c(O)c1)C(C=O)OC(=O)c1cc(O)c(O)c(O)c1)C(O)COC2=O)C(OC(=O)c1cc(O)c(O)c(O)c1)C1OC(=O)c2cc(O)c(O)c(O)c2-c2c(cc(O)c(O)c2O)C(=O)OCC1O ; value: >30 µg/mL
CCCc1cc(=O)oc2cc(O)c3c(c12)OC(C)(C)C=C3 ; value: 3 µg/mL
Nc1ncnc2c1ncn2[C@@H]1C[C@H](O)[C@@H](O)[C@H]1O ; value: >100 µg/mL

A second listing of 2 rows from above:

| compound | method | value |
|---|---|---|
| Nc1ncnc2c1ncn2[C@@H]1C[C@H](N)[C@@H](O)[C@H]1O | - | >100 µg/mL |
| O=C(OC1OC2COC(=O)c3cc(Oc4c(C(=O)OC5OC6COC(=O)c7cc(O)c(O)c(O)c7-c7c(cc(O)c(O)c7O)C(=O)OC6C(OC(=O)c6cc(O)c(O)c(O)c6)C5OC(=O)c5cc(O)c(O)c(O)c5)cc(O)c(O)c4O)c(O)c(O)c3-c3c(cc(O)c(O)c3O)C(=O)OC2C(OC(=O)c2cc(O)c(O)c(O)c2)C1OC(=O)c1cc(O)c(O)c(O)c1)c1cc(O)c(O)c(O)c1 | - | >30 µg/mL |

CCn is the concentration with n% toxicity to the cells. Rows are shuffled and stem from different studies.